Source: paper PMC7553346
“And” between values parts separate entries of the source, which are not always exact repeats. Identical values can stand only once.

Molecular target: amyloid-β 40 (Aβ40)
Assay: cross-linking; PICUP (Ru(Bpy), APS, light 3 x 1 s) of Aβ40 (50 μM) incubated in bicine (20 mM) or PBS (1X) at 37°C for 2, 4 and 7 days; SDS-PAGE (10–20% tris-tricine), silver staining

stoichiometry N: 2 and 3
Substance: amyloid-β 40 (Aβ40) (peptide; other documents disagree on this pair)
